Tested on: SE03 (acrA gene-inactivated Salmonella enterica serovar Typhimurium SL1344)
Experiment: Efflux pump inhibition assay (real-time ethidium bromide accumulation)
Assay type: cell-based
Details: compound 50 µM, EB 1 µg/mL, minute 60
Experimental: Salmonella enterica serovar Typhimurium SE03, was used as a Gram-negative bacterium. This strain has a deletion of the acrA gene, which was predicted with the least affinity for the compounds. The aim of these studies was to perform a first screening of these compounds and their ability to modulate the efflux of EB. […] The relative fluorescence index (RFI) was calculated based on the means of relative fluorescence units, depicted in Table 2.
Compounds 1–20 were evaluated for their ability to inhibit efflux pumps in SE03 and S. aureus 272123 strains, through the real-time fluorimetry, monitoring the intracellular accumulation of EB, an efflux pump substrate. This was determined by the automated method using a CLARIOstar Plus plate reader (BMG Labtech, Ortenberg, Germany). Reserpine and CCCP were applied at 25 µM as positive controls, and the solvent DMSO was applied at 1% v/v. The bacterial strains were incubated in an appropriate culture media (TSB—S. aureus 272123; LB-B—SE03) at 37 °C until they reached an optical density (OD) between 0.4 and 0.6 at λ = 600 nm. The culture was centrifuged at 13,000× g for 3 min, and the pellet washed and resuspended with PBS. […] The plates were placed into the CLARIOstar plate reader, and the fluorescence was monitored at excitation and emission wavelengths of 530 nm and 600 nm every minute for one hour on a real-time basis. […]

| SMILES | RFI ± SD (relative fluorescence index) |
| --- | --- |
| O=c1c2ccccc2oc2cc(O)c(O)cc12 [Compound 2] | −0.57 ± 0.02 ^7 |
| COc1cccc2oc3ccccc3c(=O)c12 [Compound 11] | 0.28 ± 0.09 ^6 |

— publication PMC8158687, “Xanthones Active against Multidrug Resistance and Virulence Mechanisms of Bacteria” (Antibiotics, 2021)
